Measurements reported in PubChem BioAssay AID504761 (Drosophila RNAi Screening Center, 2011)
Purpose: 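Genome-wide fly cell screen for genes dengue virus requires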 (primary screen). Cells: D.Mel-2 cells from Drosophila. Knock-down reagent: long dsRNA against Drosophila genes. Challenge: infection with dengue virus type 2; dose and infection time not stated. Read-out: 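Cells stained for dengue envelope protein and imaged; percent of infected cells per well on duplicate plates, ranked by infection, with stained nuclei counted for cell number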. Reading the numbers: infection score: higher = more virus-infected cells; cell count: higher = more cells in the well. Call rule: 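Very low infection ranking in both replicate wells (chance probability at most 0.065), then a retest showing infection dropped 1.5-fold or more at p below 0.05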. Calls: active = confirmed: knock-down lowers infection; inactive = not picked or not confirmed.
The deposit covers about 22,000 reagents; below is an unselected part of those with a known target gene and a result. Of all reagents, 116 (0.52%) got an active call. 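Calls depend on retest data that are not deposited; infection was ranked per plate without normalising between plates; the unit of the infection score is not given.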 Raw values vary from plate to plate and are shown uncorrected. Reagents against one gene are numbered here. Names joined by + are all predicted targets of the reagent. No sequences are given here. The record does not give: the amount of reagent, the time to read-out.

target gene | dsRNA no. | infection score, replicate 1 | infection score, replicate 2 | cell count, replicate 1 | cell count, replicate 2 | Call
dhd (deadhead) | 1 | 9.54 | 5.88 | 5965 | 6461 | inactive
dhd (deadhead) | 2 | 0.38 | – | 263 | 334 | inactive
CG4271 | 1 | 2.42 | 2.42 | 6153 | 6200 | inactive
CG3104 | 1 | 0.68 | 0.97 | 6431 | 6271 | inactive
CG3529 | 1 | 4.34 | 1.46 | 6292 | 6237 | inactive
CG3529 | 2 | 3.23 | 7.87 | 6260 | 5975 | inactive
CG12105 | 1 | 0.63 | 3.42 | 477 | 876 | inactive
CG12105 | 2 | 7.57 | 14 | 3038 | 6318 | inactive
Rbbp5 + CG6434 (retired record) | 1 | 15 | – | 4570 | 494 | inactive
CG6908 | 1 | 3.75 | 2.48 | 6484 | 6615 | inactive
CG6908 | 2 | 3.95 | 2.2 | 5417 | 5959 | inactive
CG8563 | 1 | 3.71 | 3.3 | 6227 | 6399 | inactive
CG34376 | 1 | 8.06 | 10.6 | 3636 | 6485 | inactive
CG34376 | 2 | 9.87 | 2.62 | 5155 | 6444 | inactive
CG34376 | 3 | 9.78 | 17.9 | 5267 | 5194 | inactive
CG34376 | 4 | 5.2 | 7.96 | 6368 | 6218 | inactive
CG3638 | 1 | 3.09 | 0.5 | 6144 | 6033 | inactive
CG3638 | 2 | 2.44 | 6.59 | 6608 | 5977 | inactive
CG30414 | 1 | 4.83 | 6.59 | 6397 | 6328 | inactive
CG30414 | 2 | 20.1 | – | 4208 | 306 | inactive
CG31633 | 1 | 5.14 | 0.56 | 5702 | 6730 | inactive
CG31633 | 2 | 13.2 | 2.83 | 6521 | 6121 | inactive
SelT (Selenoprotein T) | 1 | 2.8 | 4.25 | 5813 | 6166 | inactive
SelT (Selenoprotein T) | 2 | 23.8 | 3.61 | 5645 | 6034 | inactive
Pex23 (Peroxin 23) | 1 | 8.99 | 5.91 | 3493 | 6325 | inactive
Pex23 (Peroxin 23) | 2 | 16.8 | 15.5 | 5136 | 5346 | inactive
Pex23 (Peroxin 23) | 3 | 5.24 | 21.5 | 802 | 5894 | inactive
CG11291 | 1 | 5.81 | 5.38 | 6485 | 6808 | inactive
sisA | 1 | 1.16 | 3.11 | 6741 | 7043 | inactive
sisA | 2 | 12.8 | – | 3312 | 388 | inactive
CG11498 | 1 | 4.88 | 10.4 | 6513 | 5085 | inactive
CG15251 (retired record) | 1 | 4.79 | 8.24 | 6414 | 6640 | inactive
CG32486 | 1 | 12.8 | 8.08 | 4890 | 4998 | inactive
CG32486 | 2 | 1.83 | 8.25 | 6352 | 5820 | inactive
CG42233 | 1 | 5.32 | 10.7 | 3137 | 5317 | inactive
CG42233 | 2 | 6.19 | 3.63 | 2938 | 6417 | inactive
CG42233 | 3 | 7.09 | 10.5 | 4991 | 4407 | inactive
CG42233 | 4 | 5.21 | 4.49 | 6194 | 6009 | inactive
Nckx30C | 1 | 5.05 | 2.84 | 6279 | 6156 | inactive
Nckx30C | 2 | 5.06 | 10.3 | 6146 | 6124 | inactive
Nckx30C | 3 | 4.62 | 2.11 | 6231 | 5929 | inactive
Nckx30C | 4 | 12.9 | 18.8 | 4892 | 3810 | inactive
Lcp65Ag3 (Larval cuticle protein) | 1 | 3.09 | 18.2 | 5575 | 5531 | inactive
CG13046 | 1 | 0.43 | 3.86 | 6078 | 5932 | inactive
CG14440 | 1 | 6.36 | 19.3 | 6320 | 4984 | inactive
CG14440 | 2 | 5.44 | 7.37 | 5902 | 6472 | inactive
CG14440 | 3 | 8.2 | 1.83 | 5899 | 6223 | inactive
cv-2 (crossveinless 2) | 1 | 1.8 | 0.76 | 5663 | 5922 | inactive
cv-2 (crossveinless 2) | 2 | 1.27 | 4.7 | 6542 | 6632 | inactive
RpL27A (Ribosomal protein L27A) | 1 | 6.22 | 10.7 | 4231 | 3575 | inactive
RpL27A (Ribosomal protein L27A) | 2 | 8.57 | 5.03 | 1459 | 1172 | inactive
Cln7 | 1 | 8.02 | 2.82 | 6200 | 6557 | inactive
CG5758 | 1 | 1.24 | 12.8 | 887 | 5269 | inactive
CG5758 | 2 | 4.66 | 9.45 | 1673 | 5997 | inactive
CG5758 | 3 | – | 23.1 | 312 | 5689 | inactive
comt (comatose) | 1 | 2.97 | 1.5 | 6170 | 6531 | inactive
comt (comatose) | 2 | 2.78 | 5.52 | 5899 | 5635 | inactive
Fkbp12 (FK506-binding protein 12kD) | 1 | 2.64 | 2.95 | 6408 | 5835 | inactive
